Measured values from several laboratories, pooled; numbers as filed in NIAID ChemDB.

All rows: enzyme or target tests; agent: HIV-1; protein: Protease; method: HPLC; measure: IC50

An empty or dashed field is not shown. Rows are shuffled and stem from different studies. ICn: concentration for n% inhibition. Two numbers with a dash give a range or band.

structure | strain | setting | value
NC(=O)C[C@H](NC(=O)CCCCCCCCCCCCCCC(=O)N[C@H](C(=O)N[C@@H](Cc1ccccc1)C(N)=O)C1CCCCC1)C(=O)N[C@@H](Cc1ccccc1)C(=O)O |  |  | ~1 µM
CCCOc1ccc(C[C@H](NC(=O)c2cccc(O)c2C)[C@H](O)C(=O)N2CSC(C)(C)[C@H]2C(=O)NCc2ccccc2C)cc1 |  |  | <0.05 µg/mL
CCC(C)[C@H](NC(=O)CCCCCCCCCCCCCCC(=O)N[C@@H](CC(N)=O)C(=O)N[C@@H](Cc1ccccc1)C(=O)O)C(=O)N[C@@H](Cc1ccc(F)c(F)c1)C(N)=O |  |  | 0.872 µM
CC(C)(C)NC(=O)[C@@H]1CSCN1C(=O)[C@@H](O)[C@H](Cc1ccccc1)NC(=O)c1ccc(C(=O)O)cc1 |  |  | >5 µM
CC(C)(C)OC(=O)N[C@@H](Cc1ccccc1)[C@@H](O)C[C@@H](Cc1ccc(O)cc1)C(=O)N[C@H]1c2ccccc2C[C@H]1O |  |  | 0.0001–0.01 µM
COc1cc(O)c2c(c1)O[C@H](c1ccccc1)CC2=O |  |  | >100 µg/mL
COc1ccc(C[C@H](NC(=O)c2cccc(N)c2Cl)[C@H](O)C(=O)N2CSC(C)(C)[C@H]2C(=O)NCc2c(C)cccc2C)cc1 |  |  | <0.05 µg/mL
CC(C)[C@H](N)C(=O)N[C@@H](Cc1ccccc1)[C@H](O)CNC[C@@H](O)[C@H](Cc1ccccc1)NC(=O)OC(C)(C)C |  | pH 5.5 | ~10 µM
Cc1cc(SC2=C(O)CC(CCc3ccncc3)(C(C)C)OC2=O)c(C(C)(C)C)cc1CO |  |  | 0.00015 µM
CC1(C)S[C@H]([C@H](NC(=O)Cc2ccccc2)C(=O)NCc2ccccc2)N[C@H]1C(=O)NCCNC(=O)[C@@H]1N[C@@H]([C@H](NC(=O)Cc2ccccc2)C(=O)NCc2ccccc2)SC1(C)C | RF |  | 0.0009 µM
Cc1ccc(C[C@H](NC(=O)c2cccc(O)c2C)[C@H](O)C(=O)N2CSC(C)(C)[C@H]2C(=O)NCc2ccccc2C)cc1 |  |  | <0.05 µg/mL
Cc1cccc(C(=O)N[C@@H](Cc2ccccc2)[C@H](O)C(=O)N2CSC[C@H]2C(=O)NC(C)(C)C)c1C |  |  | >5 µM
CC(C)(C)OC(=O)N[C@@H](Cc1ccccc1)[C@@H](O)C[C@@H](CSc1ccccc1)C(=O)N[C@H](C(=O)NCCO)c1ccccc1 |  |  | 0.0001–0.01 µM
CC(C)[C@H](NC(=O)[C@H](Cc1ccccc1)NC(=O)OCc1ccccc1)C(=O)N[C@@H](Cc1ccccc1)[C@H](O)CNC[C@@H](O)[C@H](Cc1ccccc1)NC(=O)OC(C)(C)C |  | pH 5.5 | <10 µM
CCC(C)[C@H](NC(=O)CCCCCCCCCCCCCCC(=O)Nc1ccccc1C(=O)N[C@@H](Cc1ccccc1)C(=O)O)C(=O)N[C@@H](Cc1ccccc1)C(N)=O |  |  | 0.552 µM
CC[C@H](C)[C@H](NC(=O)[C@H](Cc1ccccc1)C[C@H](O)[C@H](Cc1ccccc1)NC(=O)OCc1ccncc1)C(=O)NCc1nc2ccccc2[nH]1 |  |  | 0.0001–0.01 µM
CC(C)(C)OC(=O)N[C@@H](Cc1ccccc1)[C@H](O)CNC[C@@H](O)[C@H](Cc1ccccc1)NC(=O)C1[C@H](O)CCC1(C)C |  | pH 5.5 | <10 µM
CC(C)[C@H](NC(=O)[C@H](Cc1ccccc1)C[C@H](O)[C@H](Cc1ccccc1)NC(=O)OC(C)(C)C)C(=O)NCCCN(C)C |  |  | 0.0001–0.01 µM
CC(C)(C)OC(=O)N[C@@H](Cc1ccccc1)[C@H](O)CNC[C@@H](O)[C@H](Cc1ccccc1)NC(=O)c1ccc2ccccc2c1 |  | pH 5.5 | <10 µM
CC(C)(C)OC(=O)N[C@@H](CC1CCCCC1)[C@@H](O)CC(=O)N[C@@H](CCC(=O)O)C(=O)N[C@@H](Cc1ccccc1)C(N)=O |  |  | 0.0001–0.01 µM
CCC(C)[C@H](NC(=O)CCCCCCCCCCCCCCC(=O)N[C@@H](CC(N)=O)C(=O)N[C@@H](CC1CCCCC1)C(=O)O)C(=O)N[C@@H](Cc1ccccc1)C(N)=O |  |  | 0.665 µM
Cc1c(N)cc(N)cc1C(=O)N[C@@H](Cc1ccccc1)[C@H](O)C(=O)N1CSC[C@H]1C(=O)NC(C)(C)C |  |  | >5 µM
CC(C)(C)OC(=O)N[C@@H](Cc1ccccc1)[C@H](O)CNC[C@@H](O)[C@H](Cc1ccccc1)NC(=O)[C@@H](NC(=O)OCCOc1ccccc1)C(C)(C)C |  | pH 5.5 | <10 µM
Cc1cccc(C)c1CNC(=O)[C@H]1N(C(=O)[C@@H](O)[C@H](Cc2ccc3c(c2)OCO3)NC(=O)c2cccc(N)c2Cl)CSC1(C)C |  |  | <0.05 µg/mL
CC(C)C[C@H](NC(=O)[C@@H](NC(=O)CCCCCCCCCCCCCCC(=O)N[C@@H](CC(N)=O)C(=O)N[C@@H](Cc1ccccc1)C(=O)O)C(C)O)C(=O)N[C@@H](Cc1ccccc1)C(N)=O |  |  | 5.4 µM
CC(C)(C)CC(=O)N[C@@H](Cc1ccccc1)[C@H](O)CNC[C@@H](O)[C@H](Cc1ccccc1)NC(=O)OC(C)(C)C |  | pH 5.5 | <10 µM
O=C1C[C@@H](c2ccccc2)Oc2cc(O)cc(O)c21 |  |  | >100 µg/mL
CC(C)(C)OC(=O)N[C@@H](Cc1ccccc1)[C@H](O)CNC[C@@H](O)[C@H](Cc1ccccc1)NC(=O)[C@](C)(O)c1ccccc1 |  | pH 5.5 | <10 µM
CCC(C)[C@H](NC(=O)CCCCCCCCCCCCCCC(=O)N[C@@H](CC(N)=O)C(=O)N[C@H](C(=O)O)C1CCCCC1)C(=O)N[C@@H](Cc1ccccc1)C(N)=O |  |  | 0.91 µM
CC(C)(C)NC(=O)[C@@H]1CSCN1C(=O)[C@@H](O)[C@H](Cc1ccccc1)NC(=O)c1ccc(O)cc1 |  |  | >5 µM
CC(C)(C)OC(=O)N[C@@H](Cc1ccc2ccccc2c1)[C@@H](O)C[C@@H](Cc1ccccc1)C(=O)N[C@H]1c2ccccc2C[C@H]1O |  |  | 0.0001–0.01 µM
COc1ccc(C[C@H](NC(=O)c2cccc(N)c2Cl)[C@H](O)C(=O)N2CSC(C)(C)[C@H]2C(=O)NCc2ccccc2C)cc1 |  |  | <0.05 µg/mL
NC(=O)C[C@H](NC(=O)CCCCCCCCCCCCCCC(=O)NCc1cccc(C(=O)N[C@@H](Cc2ccccc2)C(N)=O)c1)C(=O)N[C@@H](Cc1ccccc1)C(=O)O |  |  | >1 µM

For reference, 4 entries again:

CC1(C)S[C@H]([C@H](NC(=O)Cc2ccccc2)C(=O)NCc2ccccc2)N[C@H]1C(=O)NCCNC(=O)[C@@H]1N[C@@H]([C@H](NC(=O)Cc2ccccc2)C(=O)NCc2ccccc2)SC1(C)C ; strain: RF ; value: 0.0009 µM
CCCOc1ccc(C[C@H](NC(=O)c2cccc(O)c2C)[C@H](O)C(=O)N2CSC(C)(C)[C@H]2C(=O)NCc2ccccc2C)cc1 ; value: <0.05 µg/mL
Cc1cc(SC2=C(O)CC(CCc3ccncc3)(C(C)C)OC2=O)c(C(C)(C)C)cc1CO ; value: 0.00015 µM
CC(C)(C)OC(=O)N[C@@H](Cc1ccccc1)[C@@H](O)C[C@@H](CSc1ccccc1)C(=O)N[C@H](C(=O)NCCO)c1ccccc1 ; value: 0.0001–0.01 µM